The list shows a part of the results. Only a part of the results of these assays is listed, not drawn at random. Activity calls are given as the source filed them. No cut-off for these calls is given here.
Each compound was assayed on Plasmodium falciparum (assay: Primary qHTS for delayed death inhibitors of the malarial parasite plastid, 48 hour incubation. [Related pubchem assays (depositor defined):AID488752, AID488774, AID504848, AID504850]).
Assay type: functional

**Q.** How did the Potency turn out when `CCOC(=O)C(CC)C1=NC(C)(C)Cc2ccccc21` (stereo not drawn) was run?
**A.** The Potency was “inactive”.

**Q.** Which Potency does the source give for `Cc1nc2ccc3ccccc3c2s1` here?
**A.** Its Potency is “inactive”.

**Q.** For `O=[N+]([O-])c1cc([N+](=O)[O-])c(NCC2CCS(=O)(=O)C2)c([N+](=O)[O-])c1` (stereo not drawn), which Potency is on record?
**A.** The Potency was “inactive”.
